Laboratory results: PubChem BioAssay AID1259414 (Drosophila RNAi Screening Center, 2018)

- Assay: 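Host factors increasing or decreasing Wolbachia levels in cultured fly cells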 (primary screen)
- System: Drosophila JW18 cells infected with Wolbachia
- Reagent: long dsRNA against Drosophila genes, 0.25 µg dsRNA per well of a 384-well plate
- Time to read-out: 5 days
- Conditions: cells persistently infected with Wolbachia before knock-down; no added drug
- Measurement: 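Imaged fluorescence in situ signal for Wolbachia 23S rRNA per DAPI-counted host cell, given as a robust z-score within each plate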
- Direction: Wolbachia per cell robust z: higher = more Wolbachia per host cell than the plate typical
- Hit rule: 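Hit when robust z is 1.5 or more, or -1.5 or less, in at least two of three replicates; excludes dsRNAs with several or no targets, genes not expressed in JW18 and well A1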
The screen tested about 24,000 reagents; below is a random part of those that have a named target and a result. Over the whole deposit, about 1,210 (5%) are marked active. 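Inactive calls also include excluded dsRNAs with several or no targets, genes unexpressed in JW18, and well A1, regardless of score.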 Entries without a mark were called inactive. A plus sign joins genes that one reagent is predicted to hit. Reagent sequences are not shown.

gene	amplicon	Wolbachia per cell robust z, rep 1	Wolbachia per cell robust z, rep 2	Wolbachia per cell robust z, rep 3
Prp6 (pre-mRNA processing factor 6)	DRSC10724	0.673	0.584	0.69
Prp6 (pre-mRNA processing factor 6)	DRSC21773	-0.413	0.422	0.816
CG14817	DRSC18547	-0.203	-0.0941	0.0766
HSPBAP1 (HSPB1 associated protein 1)	DRSC14567	-0.443	0.552	-0.134
CG9095	DRSC20150	0.395	-3.69	-2.23
mRpL12 (mitochondrial ribosomal protein L12)	DRSC10467	1.23 (active)	-3.21	-1.61
mRpL12 (mitochondrial ribosomal protein L12)	DRSC28525	0.408	0.00941	-0.215
CG15211	DRSC19657	0.0785	0.0611	-0.411
CG3880	DRSC04428	-1.68	0.365	0.917
CG3880	DRSC21404	-0.919	-0.54	-0.383
CG3880	DRSC27449	-0.112	-1.51	-1.28
GstO2 (Glutathione S transferase O2)	DRSC10691	-0.143	-0.982	0.852
GstO2 (Glutathione S transferase O2)	DRSC29069	0.365	-1.35	-0.431
eloF (elongase F)	DRSC15162	0.461	0.587	0.739
eloF (elongase F)	DRSC25406	-0.0331	0.223	-5.61
CG3526	DRSC17240	0.361	0.0688	1.38
CG3526	DRSC18636	-0.393	0.221	0.501
CG3526	DRSC24423	-0.484	0.22	-0.191
Pal1 + Pdrg1	DRSC06587	-2.13	0.332	0.457
BomT3 (Bomanin Tailed 3)	DRSC15871	-0.968	-1.04	-6.04
BomT3 (Bomanin Tailed 3)	DRSC25578	0.438	0.962	-0.456
Eaat2 (Excitatory amino acid transporter 2)	DRSC00032	-0.353	0.358	0.196
Eaat2 (Excitatory amino acid transporter 2)	DRSC00749	0.144	1.05	0.12
Eaat2 (Excitatory amino acid transporter 2)	DRSC26070	0.31	-1.14	0.0431
mRpS16 (mitochondrial ribosomal protein S16)	DRSC07152	0.351	0.589	0.524
CG11693	DRSC14353	0.338	0.959	0.835
CG11693	DRSC28503	-1.25	-0.37	0.192
vlc (vulcan)	DRSC04922	0.504	1.12	0.63
CG33282	DRSC00422	-0.836	1.23	1.29
Tehao	DRSC03449	-0.84	-0.462	-1.59
Tehao	DRSC40769	-0.494	0.652	0.429
CG6628	DRSC10679	0.609	2.05	0.933
Tmhs (Tetraspan membrane protein in hair cell stereocilia)	DRSC08231	-0.494	-0.796	-7.35
CG31104	DRSC14658	-0.646	-0.0045	-0.25
CG31104	DRSC24390	-0.443	-0.443	-0.164
Syx7 (Syntaxin 7)	DRSC11763	0.833	0.773	0.459
CG32588	DRSC22285	-1.37	-0.908	-0.255
gammaTub37C (gamma-Tubulin at 37C)	DRSC03535	1.25	0.929	0.762
gammaTub37C (gamma-Tubulin at 37C)	DRSC25835	-1.34	-1.98	0.293
gammaTub37C (gamma-Tubulin at 37C)	DRSC40749	0.352	0.828	0.593
Naa30B (N(alpha)-acetyltransferase 30 B)	DRSC08245	0.086	0.526	-0.142
CG7332	DRSC20038	-0.828	-1.17	0.514
CG7332	DRSC28841	1.03	0.31	0.89
CG7332	DRSC39002	-0.353	0.562	-0.638
CG11164	DRSC19392	0.545	0.926	0.656
Lcp65Ae	DRSC11212	0.0254	-0.127	0.215

Reagents listed so far with an active call:
gene	amplicon	Wolbachia per cell robust z, rep 1	Wolbachia per cell robust z, rep 2	Wolbachia per cell robust z, rep 3
mRpL12 (mitochondrial ribosomal protein L12)	DRSC10467	1.23 (active)	-3.21	-1.61
